Strings that start with PEPTIDE1 are HELM notation: dots part the residues, brackets hold end groups and non-standard residues.
How the values were obtained:
[1] = general procedure: Fmoc solid-phase peptide synthesis; DMBHA resin; DIPCDI-HOBt; conditions: whole synthesis, calculated based on the protecting group-protected polypeptide (1) resin, scale 0.2 mmol, acetic acid salt
[2] = general procedure: Fmoc solid-phase peptide synthesis; DMBHA resin (Fmoc-DMBHA-CH2CH2COOH on aminomethyl resin, 0.74 meq/g); DIPCDI-HOBt; conditions: conjugation step, acetic acid salt

Substance	isolated yield [1]	conjugation yield [2]
PEPTIDE1{R.R.W.C.Y.R.K.[dK].P.Y.R.K.C.R.[am]}$PEPTIDE1,PEPTIDE1,4:R3-13:R3$$$V2.0	27%	
PEPTIDE1{[FTC].R.R.W.C.Y.R.K.[dK].P.Y.R.K.C.R.[am]}$PEPTIDE1,PEPTIDE1,5:R3-14:R3$$$V2.0		35%

— patent US5776899A (Seikagaku Corporation, priority 1993, dated 1998)
